Anti-infective test results gathered from many reports (values: NIAID ChemDB through PubChem).

All rows: host cell toxicity; cells: CEM; endpoint: CC50

CCn is the concentration with n% toxicity to the cells. Conditions beyond the fields shown may differ between rows. An empty or dashed field is not shown.

{"compound": "CCSCC1=C(C(=O)Nc2ccc(Cl)c(C(=O)OC(C)C)c2)SCCO1", "result": "28 µg/mL"}
{"compound": "CCC(CC)OC(=O)c1cc(NC(=S)c2ccccc2N)ccc1Cl", "result": "29 µg/mL"}
{"compound": "O=C(O)CCCCCCCCCCCn1cnnn1", "result": "34 µg/mL"}
{"compound": "CC1=C(C(=O)Nc2ccc(Cl)c(OCCC(C)C)c2)SCCO1", "result": ">100 µg/mL"}
{"compound": "Cc1ccc2nc(Cl)c(/C=C/C(=O)c3c4ccccc4cc4ccccc34)cc2c1", "method": "MTS", "result": "2.9 µM"}
{"compound": "[N-]=[N+]=NCCCCCCCCCCCCC(=O)O", "result": "17 µg/mL"}
{"compound": "CCCOC(=O)c1ccc(C)c(NC(=O)C2=C(C)OCCS2)c1", "result": "41 µg/mL"}
{"compound": "CC(C)c1c(Cc2cccc3ccccc23)n(COCc2ccccc2)c(=O)[nH]c1=O", "result": "19.3 µM"}
{"compound": "CCCCCOC(=O)c1cc(NC(=O)C2=C(C)OCCS2)ccc1Cl", "result": "41 µg/mL"}
{"compound": "Cc1sccc1C(=O)Nc1ccc(Cl)c(C(=O)OC2CCCCC2)c1", "result": "5.8 µg/mL"}
{"compound": "Cc1ccc2nc(Cl)c(/C=C/C(=O)c3ccc(Cl)s3)cc2c1", "method": "MTS", "result": "31.6 µM"}
{"compound": "CCOCn1c(Cc2cc(C)cc(C)c2)c(CC)c(=O)[nH]c1=O", "result": "88.6 µM"}
{"compound": "O=C(c1cccc([N+](=O)[O-])c1)c1ccc2[nH]c(=O)sc2c1", "result": "4.8 µg/mL"}
{"compound": "CCOCn1c(Sc2cc(C)cc(C)c2)c(CC)c(=O)[nH]c1=S", "result": ">100 µM"}
{"compound": "Cc1c(C(=O)Nc2ccc(Cl)c(/C=N/OC(C)(C)C)c2)ccn1C", "result": "5.5 µg/mL"}
{"compound": "O=C(O)CCCCCCCCCCCn1ccnn1", "result": "10 µg/mL"}
{"compound": "COC(=O)c1cc(NC(=O)C2=C(C)OCCS2)ccc1Cl", "result": ">100 µg/mL"}
{"compound": "Cc1ccc2nc(Cl)c(/C=C/C(=O)c3sccc3Cl)cc2c1", "method": "MTS", "result": "31.6 µM"}
{"compound": "O=C(O)/C=C/c1ccc(O)c(O)c1", "result": ">3 µg/mL"}
{"compound": "CCCCCCCCCCCC(=O)CC(=O)O", "result": "18 µg/mL"}
{"compound": "CC1=C(C(=O)N(C)c2ccc(Cl)c(C(=O)OC(C)C)c2)SCCO1", "result": "26 µg/mL"}
{"compound": "CCCCCNC(=O)CCCCCCC(=O)O", "result": ">100 µg/mL"}
{"compound": "CN1c2c(-c3ccccc3)nn(CC(=O)N/N=C/c3ccccc3F)c2-c2ccccc2S1(=O)=O", "result": "23.4 µM"}
{"compound": "CC1=C(C(=O)Nc2ccc(C)c(C(=O)OC(C)C)c2)SCCO1", "result": ">100 µg/mL"}
{"compound": "Cc1c(Cc2ccc3ccccc3c2)n(COCc2ccccc2)c(=O)[nH]c1=O", "result": "24.3 µM"}
{"compound": "Cc1sccc1C(=O)Nc1ccc(Cl)c(C(=O)OC(C(C)C)C(C)C)c1", "result": "4.1 µg/mL"}
{"compound": "Cc1cc(C)cc(Sc2c(C(C)C)c(=O)[nH]c(=O)n2COCCO)c1", "result": "79.4 µM"}
{"compound": "CN1c2c(-c3ccccc3)nn(CC(=O)N/N=C/c3ccc([N+](=O)[O-])cc3)c2-c2ccccc2S1(=O)=O", "result": ">100 µM"}
{"compound": "Cc1occc1C(=S)Nc1ccc(Cl)c(COC(C)(C)C)c1", "result": "18 µg/mL"}
{"compound": "CCCCCCCCCCC(=O)NCC(=O)O", "result": "23 µg/mL"}
{"compound": "CCC(=O)c1ccc2c(c1)sc(=O)n2CCN1CCCCC1", "result": "52 µg/mL"}
{"compound": "Cc1ccc2nc(Cl)c(/C=C/C(=O)c3ccsc3)cc2c1", "method": "MTS", "result": "3.2 µM"}
{"compound": "Cc1occc1C(=O)Nc1ccc(Cl)c(COC(C)(C)C)c1", "result": "6.2 µg/mL"}
{"compound": "CN1c2c(-c3ccccc3)nn(CC(=O)N/N=C/c3ccc(Cl)cc3)c2-c2ccccc2S1(=O)=O", "result": "44.9 µM"}
{"compound": "CCCCCCC(=O)NCCCCCC(=O)O", "result": ">100 µg/mL"}
{"compound": "Cc1ccc2nc(Cl)c(/C=C/C(=O)c3ccc4c(c3)OCCO4)cc2c1", "method": "MTS", "result": "16.5 µM"}
{"compound": "CCOCn1c(Sc2ccccc2)c(CC)c(=O)[nH]c1=S", "result": "68.4 µM"}
{"compound": "Cc1occc1C(=S)Nc1ccc(Cl)c(SCC(=O)OC(C)(C)C)c1", "result": "7 µg/mL"}
{"compound": "Cc1cn([C@H]2C[C@H](N=[N+]=[N-])[C@@H](COP(=O)(OCCC#N)O[C@H]3CC[C@@]4(C)C(=CC[C@@H]5[C@@H]4CC[C@]4(C)C([C@H](C)CCCC(C)C)CC[C@@H]54)C3)O2)c(=O)[nH]c1=O", "result": ">200 µM"}
{"compound": "Cc1sccc1C(=O)Nc1ccc(Cl)c(OCCC(C)C)c1", "result": "7 µg/mL"}
{"compound": "CN1c2c(-c3ccccc3)nn(CC(=O)N/N=C/c3cccc(Br)c3)c2-c2ccccc2S1(=O)=O", "result": "17.6 µM"}
{"compound": "Cc1occc1C(=O)Nc1ccc(Cl)c(OCCC(C)C)c1", "result": "5 µg/mL"}
{"compound": "Cc1ccc2nc(Cl)c(/C=C/C(=O)c3ccc[nH]3)cc2c1", "method": "MTS", "result": "4.9 µM"}
{"compound": "O=C(c1ccccc1)c1ccc2[nH]c(=O)sc2c1", "result": "7.1 µg/mL"}
{"compound": "COc1ccc2nc(Cl)c(/C=C/C(=O)c3cc(Cl)sc3Cl)cc2c1", "method": "MTS", "result": "6.5 µM"}
{"compound": "CC(C)c1c(Cc2cccc3ccccc23)n(COCCO)c(=O)[nH]c1=O", "result": "58.4 µM"}
{"compound": "O=C(O)c1ccc(O)c(O)c1", "result": "<3 µg/mL"}
{"compound": "CN1c2c(-c3ccccc3)nn(CC(=O)N/N=C/c3cccc(Cl)c3)c2-c2ccccc2S1(=O)=O", "result": "12.1 µM"}
{"compound": "Cc1ccc2nc(Cl)c(/C=C/C(=O)c3ccc(C)s3)cc2c1", "method": "MTS", "result": "4.4 µM"}
{"compound": "CN1c2c(-c3ccccc3)nn(CC(=O)N/N=C/c3c(Cl)cccc3Cl)c2-c2ccccc2S1(=O)=O", "result": "78.6 µM"}
{"compound": "CSc1sccc1C(=O)Nc1ccc(Cl)c(/C=N/OC(C)(C)C)c1", "result": "7.8 µg/mL"}
{"compound": "O=C(c1cccc(Br)c1)c1ccc2[nH]c(=O)oc2c1", "result": "18 µg/mL"}
{"compound": "C#CCO/N=C/c1cc(NC(=S)c2ccoc2C)ccc1Cl", "result": "10 µg/mL"}
{"compound": "COc1cc(/C=N/NC(=O)Cn2nc(-c3ccccc3)c3c2-c2ccccc2S(=O)(=O)N3C)cc(OC)c1OC", "result": "75.4 µM"}
{"compound": "CC(C)=CCOc1cc(NC(=S)c2ccsc2C)ccc1Cl", "result": "5.8 µg/mL"}
{"compound": "CCCc1c(Cc2ccc3ccccc3c2)n(COCc2ccccc2)c(=O)[nH]c1=O", "result": "19 µM"}
{"compound": "Cc1occc1C(=S)Nc1ccc(Cl)c(/C=N/OC2CCCC2)c1", "result": "5.4 µg/mL"}
{"compound": "Cc1cccc(C(=O)c2ccc3[nH]c(=O)sc3c2)c1", "result": "11 µg/mL"}

Repeating the first 3 entries:

compound | method | result
CCSCC1=C(C(=O)Nc2ccc(Cl)c(C(=O)OC(C)C)c2)SCCO1 |  | 28 µg/mL
CCC(CC)OC(=O)c1cc(NC(=S)c2ccccc2N)ccc1Cl |  | 29 µg/mL
O=C(O)CCCCCCCCCCCn1cnnn1 |  | 34 µg/mL